This passage reports Km, Vmax and kcat/Km results from publication PMC11005471 (Frontiers in Veterinary Science, 2024).

The data set has as its system O=C(COP(=O)(O)O)[C@@H](O)[C@H](O)[C@H](O)[C@H](O)COP(=O)(O)O. The data set can be described thus: purified protein. The conditions noted are these: pH 7.4; 30.0 °C.

As a reminder, the Km is the substrate concentration at which the rate is half of its maximum. What is called Vmax is the top rate of the reaction or transport when substrate is in excess. As usually defined, the kcat/Km is the second-order rate constant that governs catalysis at low substrate concentration. Take (Brucella suis 1330): the Michaelis constant (Km) was determined as 11.6 ± 1.9 µM, the Vmax was 14.3 µmol/min/mg and the kcat/Km is 710000 M⁻¹ s⁻¹.
